PubChem BioAssay AID720580 (National Center for Advancing Translational Sciences (NCATS), 2013)
This is a selection; strong and weak results do not stand in their true shares. Records with an inconclusive call do not appear. Some salts and complexes are drawn in separate pieces, as the source files them; their charges need not balance. The source made the active and inactive calls. Calls come from the whole dose curve; tested in A549 cells.

assay: qHTS for Stage-Specific Inhibitors of Vaccinia Orthopoxvirus: Venus Reporter Primary qHTS; conditions: Vaccinia virus Venus reporter expression, fluorescence; at 36.5 µM (top of the series); note: nearly all actives have a fitted effect of over 30% in size
% is set by controls: 0 for no effect and ±100 for the full control effect.

SMILES | activity change, negative = inhibition
CC(C)(C)n1nnnc1C(c1cccc2ccccc12)N1CCC(n2c(=O)[nH]c3ccccc32)CC1 (stereo not drawn) | inactive: -12.9%
CN(C)C1(CNC(=O)c2cccc(C#N)c2)CCCCC1 | inactive: -6.48%
O=C(NCC1(N2CCOCC2)CCCCC1)c1ccccc1 | inactive: 1.33%
Cc1cc(N(CCCl)CCCl)ccc1C=O | inactive: -27.8%
O=c1[nH]c2ccccc2n1C1CCN(C(c2ccccc2)c2nnnn2C2CCCC2)CC1 (stereo not drawn) | inactive: 1.88%
CCCN1CCC(Nc2cc(OC)cc(OC)c2)CC1 | inactive: -5.65%
c1ccc(CN2CCC(Nc3ccccc3)CC2)cc1 | inactive: -4.72%
O=C(NCC1(N2CCOCC2)CCCCC1)c1ccccc1[N+](=O)[O-] | inactive: -11.5%
N#Cc1ccc(C(=O)NCC2(N3CCCCC3)CCCCC2)cc1 | inactive: -16.9%
CC(C)(C)OC(=O)N1CCC(N(C(=O)c2ccccc2)c2ccc(Cl)cc2)CC1 | inactive: -11.7%
O=C(NCC1(N2CCOCC2)CCCCC1)c1ccc([N+](=O)[O-])cc1 | inactive: 15.5%
O=c1[nH]c2ccccc2n1C1CCN(C(c2cccs2)c2nnnn2C2CCCC2)CC1 (stereo not drawn) | inactive: -12.3%
CCc1cc(C(=O)NCC2(N3CCCCC3)CCCCC2)sc1C | inactive: -0.491%
O=C(OC1CN2CCC1CC2)C1c2ccccc2C=Cc2ccccc21 (stereo not drawn) | inactive: -14.8%
CCCCn1nnnc1C(c1cccc(OC)c1OC)N1CCC(n2c(=O)[nH]c3ccccc32)CC1 (stereo not drawn) | inactive: -21.6%
CCOC(=O)N1CCC(Nc2ccc(C)cc2)CC1 | inactive: -12%
COc1cccc(C(c2nnnn2C(C)(C)C)N2CCC(n3c(=O)[nH]c4ccccc43)CC2)c1OC (stereo not drawn) | inactive: -5.02%
N/C(=N\O)c1c(N)no[n+]1[O-] | inactive: 17.9%
O=Cc1ccc(N(CCCl)CCCl)cc1 | inactive: -13.7%
O=c1[nH]c2ccccc2n1C1CCN(C(c2cccs2)c2nnnn2C2CCCCC2)CC1 (stereo not drawn) | inactive: -7.65%
O=c1[nH]c2ccccc2n1C1CCN(C(c2ccnc3ccccc23)c2nnnn2C2CCCC2)CC1 (stereo not drawn) | inactive: -12.7%
COc1ccc(C(=O)NCC2(N3CCOCC3)CCCCC2)cc1OC | inactive: -7.6%
CCCCn1nnnc1C(c1ccccc1)N1CCC(n2c(=O)[nH]c3ccccc32)CC1 (stereo not drawn) | inactive: 0.887%
COc1cccc(C(=O)N(c2cc(C)cc(C)c2)C2CCN(C(=O)OC(C)(C)C)CC2)c1 | inactive: -8.14%

SMILES | activity change, negative = inhibition
COc1cc(OC)cc(C(=O)NCC2(N3CCOCC3)CCCCC2)c1 | inactive: 0.206%
COc1cccc(C(c2nnnn2C2CCCC2)N2CCC(n3c(=O)[nH]c4ccccc43)CC2)c1OC (stereo not drawn) | inactive: -19.6%
COc1cc(C(=O)NCC2(N3CCOCC3)CCCCC2)cc(OC)c1OC | inactive: 11.3%
CCC(CO)(C(=O)OC1CN2CCC1CC2)c1ccccc1 (stereo not drawn) | inactive: -9.58%
NN(c1ccccc1)C1CCN(CCc2ccccc2)CC1 | inactive: 7.13%
ClCCN(CCCl)c1ccc(C=C2C=CC=C2)cc1 | inactive: -13.5%
CC(C)(C)OC(=O)N1CCC(Nc2ccccc2)CC1 | inactive: 0.109%
O=c1[nH]c2ccccc2n1C1CCN(C(c2cc3ccccc3o2)c2nnnn2C2CCCC2)CC1 (stereo not drawn) | inactive: -20.3%
ClCCN(CCCl)c1ccccc1 | inactive: -16.7%
CN1CCC(Nc2ccc(F)c(Cl)c2)CC1 | inactive: -17.4%
CCOc1ncccc1C(=O)NCC1(N2CCOCC2)CCCCC1 | inactive: 0.18%
Cc1ccccc1C(=O)NCC1(N(C)C)CCCCC1 | inactive: -6.11%
CN(C)c1ccc(C(=O)NCC2(N3CCCCC3)CCCCC2)cc1 | inactive: -16.4%
Cn1c(=O)[nH]cc(N(CCCl)CCCl)c1=O | inactive: -7.41%
CC(C)(C)c1ccc(C(=O)NCC2(N3CCOCC3)CCCCC2)cc1 | inactive: -0.715%
CCN1CCC(Nc2cccc(F)c2)CC1 | inactive: -11.8%
COc1ccc(C(c2nnnn2C2CCCCC2)N2CCC(n3c(=O)[nH]c4ccccc43)CC2)cc1 (stereo not drawn) | inactive: -11%
CC(C)(C)n1nnnc1C(c1ccnc2ccccc12)N1CCC(n2c(=O)[nH]c3ccccc32)CC1 (stereo not drawn) | inactive: -9.71%
Cc1ccccc1NC1(C#N)CCN(Cc2ccccc2)CC1 | inactive: -9.22%
Fc1ccccc1NC1CCN(Cc2ccccc2)CC1 | inactive: -16.4%
Cc1ccc(Nc2c([N+](=O)[O-])cc([N+](=O)[O-])cc2[N+](=O)[O-])cc1 | inactive: -25.8%
Cc1ccc(C(=O)NCC2(N3CCCCC3)CCCCC2)o1 | inactive: -7.26%
Cc1ccc(NC2(C#N)CCN(Cc3ccccc3)CC2)cc1 | inactive: -13.9%
CCC(c1nnnn1C1CCCCC1)N1CCC(n2c(=O)[nH]c3ccccc32)CC1 (stereo not drawn) | inactive: -13.6%

SMILES | activity change, negative = inhibition
CN(C)C1(CNC(=O)c2ccc(C(C)(C)C)cc2)CCCCC1 | inactive: -7.78%
COc1cccc(C(c2nnnn2C2CCCCC2)N2CCC(n3c(=O)[nH]c4ccccc43)CC2)c1OC (stereo not drawn) | inactive: -27.4%
CC(=O)N(c1ccccc1)C1CCNCC1 | inactive: 0%
COc1cc(OC)cc(C(=O)NCC2(N3CCCCC3)CCCCC2)c1 | inactive: 7%
O=c1[nH]c2ccccc2n1C1CCN(C(c2ccnc3ccccc23)c2nnnn2C2CCCCC2)CC1 (stereo not drawn) | inactive: -17.8%
COc1cc(C(=O)NCC2(N(C)C)CCCCC2)ccc1OC(F)F | inactive: -20%
O=c1[nH]c2ccccc2n1C1CCN(C(c2cccc3ccccc23)c2nnnn2C2CCCC2)CC1 (stereo not drawn) | inactive: -21.9%
O=c1[nH]c2ccccc2n1C1CCN(C(c2ccccc2)c2nnnn2C2CCCCC2)CC1 (stereo not drawn) | inactive: -24.3%
COc1ccccc1C(=O)NCC1(N2CCOCC2)CCCCC1 | inactive: -0.341%
CCCCOc1ccc(C(=O)NCC2(N3CCOCC3)CCCCC2)cc1 | inactive: -7.9%
CCCCn1nnnc1C(c1cc2ccccc2o1)N1CCC(n2c(=O)[nH]c3ccccc32)CC1 (stereo not drawn) | inactive: -20.9%
O=P1(N(CCCl)CCCl)SCCCS1 | inactive: -6%
O=C(NCC1(N2CCCCC2)CCCCC1)c1ccc(F)cc1 | inactive: -2.33%
O=C1CCN(Cc2ccccc2)CC1 | inactive: -8.31%
O=C(NCC1(N2CCOCC2)CCCCC1)c1ccc(Cl)cc1 | inactive: 4.66%
CC(C)(C)n1nnnc1C(c1ccccc1)N1CCC(n2c(=O)[nH]c3ccccc32)CC1 (stereo not drawn) | inactive: -1.96%
CCOc1ccc(C)cc1CN(CCCl)CCCl | inactive: -9.69%
COc1ccc(Cl)cc1C(=O)NCC1(N2CCOCC2)CCCCC1 | inactive: -10.3%
O=C1C(O)=C([N+](=O)[O-])C(=O)C(O)=C1[N+](=O)[O-] | inactive: 4.4%
O=C(NCC1(N2CCCCC2)CCCCC1)c1ccc(Cl)s1 | inactive: -12.3%
O=c1[nH]c2ccccc2n1C1CCN(C(c2cc3ccccc3o2)c2nnnn2C2CCCCC2)CC1 (stereo not drawn) | inactive: -14.3%
O=C(OC1CN2CCC1CC2)C1c2ccccc2Oc2ccccc21 (stereo not drawn) | inactive: -8.92%
CCCCn1nnnc1C(c1ccc(OC)cc1)N1CCC(n2c(=O)[nH]c3ccccc32)CC1 (stereo not drawn) | inactive: -10.1%
Cc1cc(C)cc(N(C(=O)c2ccccc2)C2CCN(C(=O)OC(C)(C)C)CC2)c1 | inactive: -19.9%

SMILES | activity change, negative = inhibition
O=C(NCC1(N2CCCCC2)CCCCC1)c1ccc(Cl)nc1 | inactive: -8.71%
O=c1[nH]c2ccccc2n1C1CCN(C(c2ccccc2OC(F)(F)F)c2nnnn2C2CCCCC2)CC1 (stereo not drawn) | inactive: -18.5%
O=C(NCC1(N2CCOCC2)CCCCC1)c1cc2ccccc2o1 | inactive: -17.8%
Cc1cccc(NC2(C#N)CCN(Cc3ccccc3)CC2)c1 | inactive: -7.85%
CSc1ccccc1C(=O)NCC1(N2CCCCC2)CCCCC1 | inactive: -2.71%
COc1ccc(C(=O)NCC2(N3CCCCC3)CCCCC2)c(OC)c1OC | inactive: -17.5%
CCC(c1nnnn1C1CCCC1)N1CCC(n2c(=O)[nH]c3ccccc32)CC1 (stereo not drawn) | inactive: 10.8%
COc1ccc(C(=O)NCC2(N3CCCCC3)CCCCC2)cc1 | inactive: 2.55%
O=C(NCC1(N2CCCCC2)CCCCC1)c1cccs1 | inactive: -8.55%
CCCCn1nnnc1C(CC)N1CCC(n2c(=O)[nH]c3ccccc32)CC1 (stereo not drawn) | inactive: -5.25%
CCCCn1nnnc1C(c1cccs1)N1CCC(n2c(=O)[nH]c3ccccc32)CC1 (stereo not drawn) | inactive: -7.33%
COc1ccc(C(c2nnnn2C2CCCC2)N2CCC(n3c(=O)[nH]c4ccccc43)CC2)cc1 (stereo not drawn) | inactive: -13.7%
O=[N+]([O-])c1cc([N+](=O)[O-])c(Nc2ccc(Cl)cc2)c([N+](=O)[O-])c1 | inactive: -20.2%
O=C(NCC1(N2CCOCC2)CCCCC1)c1ccccc1Br | inactive: 8.37%
CCCOc1ccc(C(=O)NCC2(N(C)C)CCCCC2)cc1OC | inactive: -0.787%
CCCCOc1ccccc1C(=O)NCC1(N2CCOCC2)CCCCC1 | inactive: -23.7%
Cc1ccc(C(=O)NCC2(N(C)C)CCCCC2)o1 | inactive: -6.5%
O=C(OC1CN2CCC1CC2)c1ccc([N+](=O)[O-])cc1 (stereo not drawn) | inactive: 19.8%
CN1CCC(Nc2cccc(F)c2)CC1 | inactive: -10.1%
COc1ccc2c(c1O)-c1c(O)c(OC)cc3c1[C@H](C2)[N+](C)(C)CC3.O=[N+]([O-])c1cc([N+](=O)[O-])c([O-])c([N+](=O)[O-])c1[O-] | inactive: -8.06%
O=C(NCC1(N2CCCCC2)CCCCC1)c1cncc(Br)c1 | inactive: -3.47%
